Experimental data: PubChem BioAssay AID624099 (ICCB-Longwood, 2012)

- Screen: 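Knock-downs relieving repression by E2 of an HPV18 LCR luciferase reporter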 (primary screen)
- Cells: human C33A cervical carcinoma cells (HPV-negative) stably expressing BPV1 E2 and an HPV18 LCR luciferase reporter
- Reagents: siRNA pool against human genes, 40 nM
- Timing: 72 h
- Measured: 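Per-well luciferase luminescence, z-scored on each plate against the plate mean and SD with control wells left out, then averaged across three replicate plates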
- Scale: mean z-score and z-score: higher = stronger reporter signal, weaker E2 silencing
- Call rule: 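Hit if mean z-score reaches 2 and two or more of three replicate z-scores also reach 2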
The whole screen tested about 21,000 reagents; below is an unselected part. 497 of all reagents (2.4%) count as active. 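Higher z means weaker E2 silencing; only reporter increases were scored, and knock-downs that hurt cell survival may mask genuine repressor factors.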 A number with no mark means an inactive call.

gene knocked down	PubChem SID	mean z-score	z-score, replicate A	z-score, replicate B	z-score, replicate C
MYBPC3	SID134315446	0.23	0.43	0.29	-0.03
MIS12	SID134318440	0.22	0.38	0.19	0.09
FGF8	SID134317905	-0.1	-0.31	-0.01	0.02
SLC5A5	SID134312639	-0.99	-1.42	-1.02	-0.53
SEC14L4	SID134323050	0.56	0.54	0.51	0.63
PMCH	SID134323458	0.07	-0.3	0.17	0.33
PTER	SID134313597	0.6	0.61	0.47	0.71
TIMM10	SID134313095	1.33	1.36	1.18	1.45
UBAC2	SID134321815	-0.27	-0.15	-0.41	-0.25
KRTAP13-2	SID134329004	-0.96	-0.88	-1.14	-0.87
ATP5PD	SID134316992	-0.59	-0.61	-0.47	-0.69
LDHAL6B	SID134313750	2.19 (active)	1.83	2.1	2.63
SNAP47	SID134319245	0.79	0.79	0.49	1.1
P4HA3	SID134313350	-0.73	-1.18	-0.51	-0.51
PCNX3	SID134328261	0.12	0.44	0.06	-0.13
SLA	SID134315261	1.51	1.44	2.01	1.09
TMEM132E	SID134325662	-0.57	-0.74	-0.57	-0.4
SPRR2B	SID134323488	0.09	0.17	0.26	-0.16
STGC3 (retired record)	SID134329965	-1.74	-1.8	-1.76	-1.66
OR13G1	SID134329929	4.1 (active)	3.41	4.48	4.41
AANAT	SID134314951	-2.59	-2.56	-2.73	-2.48

Hits (from the list above):
gene knocked down	PubChem SID	mean z-score	z-score, replicate A	z-score, replicate B	z-score, replicate C
LDHAL6B	SID134313750	2.19 (active)	1.83	2.1	2.63
OR13G1	SID134329929	4.1 (active)	3.41	4.48	4.41

Next results follow.
gene knocked down	PubChem SID	mean z-score	z-score, replicate A	z-score, replicate B	z-score, replicate C
TMEM169	SID134322814	-0.46	-0.25	-0.37	-0.75
TMEM183AP3	SID134328529	0.39	-0.05	0.11	1.11
ZNF175	SID134324984	-0.01	-0.19	0.16	-0.01
LAMP3	SID134310589	-1.2	-1.22	-1.18	-1.2
GJC2	SID134324091	1.32	1.35	1.37	1.23
PCP4	SID134323861	-0.68	2.95	2.84	-7.83
YPEL5	SID134324036	0.46	0.69	0.34	0.36
GORASP1	SID134317732	0.21	0.26	0.33	0.04
KIAA0825	SID134321996	-0.35	-0.22	-0.19	-0.63
KIAA0825	SID134327523	0.19	0.23	0.37	-0.03
KIAA0825	SID134327524	0.91	1.26	0.73	0.73
KCNS1	SID134311694	-0.5	-0.33	-0.65	-0.52
PM20D1-AS1	SID134327010	-0.2	-0.48	-0.33	0.21
SNHG32	SID134324508	0.06	-0.09	-0.17	0.45
FOXA1	SID134314892	0.17	0.6	0.05	-0.14
A3GALT2	SID134325207	1.47	1.84	1.24	1.34
TOE1	SID134322247	2.41 (active)	2.62	2.45	2.17
ZNF416	SID134318029	-0.32	0	-0.36	-0.59
CBX1	SID134314439	-0.4	-0.51	-0.38	-0.31
ACTA2	SID134309900	0.18	0.24	0.15	0.14
GNA13	SID134314639	-0.16	-0.04	-0.52	0.09
VEGFC	SID134316368	0.8	0.83	0.57	1.01
GPR148	SID134311136	0.45	0.73	0.15	0.48
CMTM4	SID134315244	-0.4	-0.5	-0.82	0.12
PDGFRL	SID134315029	-0.32	-0.37	-0.94	0.37
CRYZ	SID134314586	-0.79	-0.35	-1.2	-0.82
LINC02138	SID134328675	0.19	0	0.33	0.25
JUN	SID134309825	-0.65	-0.77	-0.48	-0.7
MORF4L2	SID134311766	-1.04	-0.87	-1.13	-1.12
LOC400688 (retired record)	SID134328899	-0.33	-0.1	-0.72	-0.17
CEP131	SID134325669	-0.32	-0.22	-0.53	-0.21
PSPN	SID134316202	-0.03	0.05	0.04	-0.17
TM7SF2	SID134311174	0.51	0.2	0.42	0.9
CNIH2	SID134322582	-1.02	-0.49	-1.5	-1.07
APBA3	SID134316271	-0.2	-0.32	0	-0.28
HARS1	SID134317637	-0.33	-0.44	0.32	-0.88
